## Potato spindle tuber viroid, loop 6: variant abundance in plants

Values reported by Wu et al. 2024 (doi:10.1371/journal.ppat.1012142).

The pool varies loop 6 of the PSTVd intermediate strain in the pattern UNNNCGNNNG; wild type is UGACCGCGAG (upper and lower strand joined, each 5' to 3', the first 5 letters being the upper strand, closing pairs included).

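A pool of all variants was put on leaves of three Nicotiana benthamiana plants. Progeny were sequenced from the inoculated region (day 5), the margin of the inoculated leaf (day 10) and systemic leaves (day 12).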

Values are reads per thousand in the sample; higher means more abundant, 0 means not found.
Each site shows the three plants.
"Pool" is the share in the plasmid pool used as inoculum, on the same scale.
The inoculated region was read from the minus strand, the other sites from the plus strand.
IR is the inoculated region, LM the leaf margin, Sys the systemic leaves.
With 36,220-57,551 reads a sample, very low values are single reads.

* CGACCGGCCG (pool 0.0131) = IR 0.0348 / 0.0359 / 0; LM 0 / 0 / 0; Sys 0 / 0 / 0
* UAACCGAAAG (pool 0.157) = IR 0.782 / 0.665 / 0.553; LM 0.110 / 0.151 / 0.0696; Sys 0 / 0.121 / 0
* UAAGCGAAAG (pool 0.183) = IR 0.122 / 0.0719 / 0.0369; LM 0 / 0 / 0; Sys 0 / 0 / 0
* UACACGCCUG (pool 0.222) = IR 0.0348 / 0.108 / 0.0553; LM 0.0552 / 0 / 0; Sys 0 / 0 / 0
* UACCCGCUGG (pool 0.196) = IR 0.0695 / 0.108 / 0.0738; LM 0 / 0 / 0.0464; Sys 0 / 0 / 0
* UACCCGCUUG (pool 0.261) = IR 0.0695 / 0.0359 / 0.0922; LM 0.0276 / 0 / 0; Sys 0 / 0 / 0
* UACCCGUAGG (pool 0.235) = IR 0.104 / 0.108 / 0.0369; LM 0 / 0 / 0.0232; Sys 0 / 0 / 0
* UACUCGACAG (pool 0.170) = IR 0.122 / 0.108 / 0.129; LM 0 / 0 / 0.0232; Sys 0 / 0 / 0
* UAGGCGUCGG (pool 0.275) = IR 0.122 / 0.126 / 0.0738; LM 0 / 0 / 0; Sys 0 / 0.0202 / 0.0205
* UAUACGCAGG (pool 0.235) = IR 0.122 / 0.0898 / 0.111; LM 0 / 0 / 0; Sys 0 / 0 / 0
* UAUCCGCUGG (pool 0.248) = IR 0.122 / 0.0180 / 0.0553; LM 0 / 0 / 0; Sys 0 / 0 / 0
* UAUGCGGAGA (pool 0.0131) = IR 0 / 0 / 0; LM 0 / 0 / 0; Sys 0 / 0 / 0
* UCACCGGUCG (pool 0.314) = IR 0.0521 / 0.0719 / 0.0738; LM 0.0276 / 0 / 0.0232; Sys 0 / 0 / 0
* UCAUCGCUGG (pool 0.196) = IR 0.139 / 0.0898 / 0.0922; LM 0 / 0 / 0.0232; Sys 0 / 0 / 0
* UCCGCGCGUG (pool 0.170) = IR 0.139 / 0.0898 / 0.111; LM 0 / 0 / 0; Sys 0 / 0 / 0
* UCCUCGAAAG (pool 0.209) = IR 0.0869 / 0.108 / 0.0184; LM 0 / 0 / 0; Sys 0 / 0 / 0
* UCGCCGAUAG (pool 0.235) = IR 0.0695 / 0.0180 / 0.129; LM 0.0276 / 0 / 0.325; Sys 0 / 0 / 0
* UCGCCGUCUG (pool 0.222) = IR 0.0869 / 0.126 / 0.129; LM 0 / 0 / 0.0232; Sys 0 / 0 / 0
* UCGUCGAUUG (pool 0.471) = IR 0.104 / 0.126 / 0.0553; LM 0 / 0 / 0.0232; Sys 0 / 0 / 0.0205
* UGAACGUAUG (pool 0.261) = IR 0.139 / 0.216 / 0.111; LM 0.359 / 0 / 0.0232; Sys 0 / 0 / 0
* UGACCGUACG (pool 0.327) = IR 0.0869 / 0.251 / 0.277; LM 0.387 / 0.151 / 0.0232; Sys 0.0180 / 0.0606 / 0.287
* UGAGCGCAUG (pool 0.105) = IR 0.0869 / 0.0898 / 0.0553; LM 0 / 0 / 0.0232; Sys 0 / 0 / 0
* UGCACGGUUG (pool 0.275) = IR 0.139 / 0.108 / 0.0553; LM 0 / 0 / 0.0232; Sys 0 / 0 / 0
* UGCUCGCCGU (pool 0.0131) = IR 0 / 0 / 0; LM 0 / 0 / 0; Sys 0 / 0 / 0
* UGGGCGCCAG (pool 0.0784) = IR 0.0348 / 0.108 / 0.0922; LM 0 / 0 / 0.0232; Sys 0 / 0 / 0
* UGGGCGGUCG (pool 0.157) = IR 0.0695 / 0.144 / 0.0553; LM 0 / 0 / 0; Sys 0 / 0 / 0
* UGUCCGUGGG (pool 0.183) = IR 0.0869 / 0.0719 / 0.0922; LM 0 / 0 / 0; Sys 0 / 0 / 0
* UGUGCGAAGG (pool 0.118) = IR 0.139 / 0.0898 / 0.0369; LM 0 / 0 / 0.0232; Sys 0 / 0 / 0
* UUAGCGGGCG (pool 0.183) = IR 0.730 / 0.701 / 0.479; LM 0.110 / 0.101 / 0.0232; Sys 0 / 0 / 0
* UUCACGCAGG (pool 0.209) = IR 0.0521 / 0.108 / 0.0922; LM 0.0276 / 0 / 0.0464; Sys 0 / 0 / 0
* UUCUCGCGCG (pool 0.261) = IR 0.156 / 0.126 / 0.0738; LM 0 / 0 / 0; Sys 0 / 0 / 0.0205
* UUCUCGUUAG (pool 0.418) = IR 0.139 / 0.108 / 0.166; LM 0 / 0 / 0; Sys 0 / 0 / 0
* UUGACGGUGG (pool 0.261) = IR 0.0695 / 0.0539 / 0.111; LM 0 / 0 / 0.0464; Sys 0 / 0 / 0
* UUUACGCACG (pool 0.131) = IR 0.209 / 0.0359 / 0.0184; LM 0 / 0 / 0; Sys 0 / 0 / 0
* UUUCCGCUGG (pool 0.222) = IR 0.0695 / 0.0719 / 0.0369; LM 0 / 0 / 0.0464; Sys 0 / 0 / 0
* UUUCCGGGCG (pool 0.209) = IR 0.139 / 0.126 / 0.0369; LM 0 / 0 / 0.0232; Sys 0 / 0 / 0
* UUUUCGAUCG (pool 0.261) = IR 0.104 / 0.0180 / 0.0553; LM 0 / 0 / 0.0232; Sys 0 / 0 / 0
* UUUUCGCUUG (pool 0.235) = IR 0.174 / 0.0359 / 0.0553; LM 0 / 0 / 0.0232; Sys 0 / 0 / 0.0410
* UUUUCGGGAG (pool 0.144) = IR 0.608 / 0.557 / 0.369; LM 0.0276 / 0.0757 / 0.0696; Sys 0 / 0.0404 / 0.0410
* UUUUCGUUGG (pool 0.235) = IR 0.0869 / 0.0898 / 0.0553; LM 0 / 0 / 0; Sys 0 / 0 / 0

Sequences that differ at fixed positions probably stem from PCR or sequencing errors, and defective variants can be carried along by functional ones.
For reference, wild type rose from 20.7 per thousand in the pool to 195, 198, 203 (inoculated region), 629, 591, 734 (leaf margin) and 942, 870, 868 (systemic leaves).